Compound potency records, mixed from different reports. Data source: NIAID ChemDB in PubChem.

All rows: growth or infection tests; species: Candida krusei

Rows are shuffled and stem from different studies. MIC50, MIC90 and the like: level of inhibition, or share of isolates inhibited. An empty or dashed field is not shown. Percent inhibition refers to the dose given; in toxicity tests it is the harm to the cells.

| compound | strain | dose | endpoint | read by | result |
|---|---|---|---|---|---|
| CC(C)(O)c1cn(-c2ccc3ccccc3c2)nn1 | URM 109 | 2048 µg/mL | inhibition | broth dilution | 0% |
| Clc1ccc(C(c2ccccc2)n2ccnc2)cc1 | - | - | MIC90 | agar | 0.5 µg/mL |
| CCCCCCn1cc[n+](COCCOC[n+]2ccn(CCCCCC)c2)c1 | ATCC 6258 | - | MIC100 | agar diffusion | 669 µM |
| O=C(c1ccccc1)C(c1ccccc1)n1ccnc1 | - | - | MIC90 | agar | >256 µg/mL |
| CCCCCCCCCCn1cc[n+](COCCCCCCOC[n+]2ccn(CCCCCCCCCC)c2)c1 | ATCC 6258 | - | MIC100 | agar diffusion | 2 µM |
| CCC(C)CC(C)CCCCCCCCC(=O)N[C@H]1C[C@@H](O)[C@H](NCCN)NC(=O)[C@@H]2[C@@H](O)CCN2C(=O)[C@H]([C@H](O)CCN)NC(=O)[C@H]([C@H](O)[C@@H](O)c2ccc(O)cc2)NC(=O)[C@@H]2C[C@@H](O)CN2C(=O)[C@H]([C@@H](C)O)NC1=O | ATCC 5029 | - | MIC50 | broth dilution | 0.25 µg/mL |
| C=CCc1ccc(O)c(OC)c1 | 337 | - | MIC90 | turbidity | 500 µg/mL |
| CCCCCCCCn1cc[n+](COCCCOC[n+]2ccn(CCCCCCCC)c2)c1 | ATCC 6258 | - | MIC100 | agar diffusion | 150 µM |
| Cc1ccc(-n2cc(C(C)(C)O)nn2)cc1C | URM 4802 | 2048 µg/mL | inhibition | broth dilution | 0% |
| Clc1ccc(C(c2ccccc2)N2CCN(CCn3ccnc3)CC2)cc1 | - | - | MFC | broth dilution | >256 µg/mL |
| CCCCCn1cc[n+](COCCOC[n+]2ccn(CCCCC)c2)c1 | ATCC 6258 | - | MIC100 | agar diffusion | 712 µM |
| CC(C)(O)c1cn(-c2ccc([N+](=O)[O-])cc2)nn1 | URM 934 | 2048 µg/mL | inhibition | broth dilution | 0% |
| CCCCCCCCCCCn1cc[n+](COCCOC[n+]2ccn(CCCCCCCCCCC)c2)c1 | ATCC 6258 | - | MIC100 | agar diffusion | 2 µM |
| CC(C)(O)c1cn(-c2cccc3ccccc23)nn1 | URM 4802 | 2048 µg/mL | inhibition | broth dilution | 0% |
| COc1ccc(C(c2ccc(OC)cc2)n2ccnc2)cc1 | - | - | MIC90 | agar | >256 µg/mL |

2 of the rows above, restated:

compound	strain	dose	endpoint	read by	result
CCCCCCCCn1cc[n+](COCCCOC[n+]2ccn(CCCCCCCC)c2)c1	ATCC 6258	-	MIC100	agar diffusion	150 µM
Cc1ccc(-n2cc(C(C)(C)O)nn2)cc1C	URM 4802	2048 µg/mL	inhibition	broth dilution	0%